Pooled drug test results. Numbers come from NIAID ChemDB, via PubChem.

Shared fields: toxicity to cultured cells; cells: MT-2; read-out: CC50

CCn is the concentration with n% toxicity to the cells. Blank or dashed fields: not listed here. a–b is a range or a potency band. Rows are shuffled and stem from different studies.

structure	read by	value
Cc1ccc2c(c1)C(CC1CCN(C)CC1)(CC1CCN(C)CC1)c1ccccc1-2		72 µM
Cc1cn([C@H]2C[C@H](F)[C@@H](COP(=O)(O)O)O2)c(=S)[nH]c1=O		>200 µM
O=S1(c2ccc(Cl)cc2)=NC(=S)Nc2ccc(Cl)cc21		32.8 µM
CC(=O)Oc1ccc(/C=C/C(=O)O[C@@H](C(=O)O)[C@@H](OC(=O)/C=C/c2ccc(OC(C)=O)c(OC(C)=O)c2)C(=O)O)cc1OC(C)=O	neutral red	>18.6 µM
CC(C)(C)NC(=O)[C@@H]1C[C@@H]2CCCC[C@@H]2CN1C[C@@H](O)[C@H](Cc1ccccc1)NC(=O)[C@H](CC(N)=O)NC(=O)c1ccc2ccccc2n1	MTT	25 µM
COC(=O)N[C@H](C(=O)N[C@@H](Cc1ccccc1)[C@@H](O)CN(Cc1ccc(-c2ccccn2)cc1)NC(=O)[C@@H](NC(=O)OC)C(C)(C)C)C(C)(C)C		28 µM
CCCCC(=O)N[C@H]1CCCCOc2ccc(cc2)C[C@@H]([C@H](O)CN(CCC(C)C)S(=O)(=O)c2ccc(NC(C)=O)cc2)NC(=O)[C@H](CCCC)NC1=O	trypan blue	9.86 µM
O=C(O)C(=Cc1ccc(O)c(O)c1)C(=Cc1ccc(O)c(O)c1)C(=O)O	neutral red	>55 µM
CN1CCC(CC2(CC3CCN(C)CC3)c3ccccc3-c3ccccc32)CC1		87 µM
O=C(O)[C@H](O)[C@@H](O)C(=O)O	neutral red	>1000 µM
Nc1nc(=O)n(CCOCP(=O)(O)O)cc1Br	propidium iodide	100 µM
Nc1ccn([C@H]2CC[C@@H](CO)O2)c(=O)n1		400 µM
CCCOC[C@@H]1NC(=O)[C@@H](NC(=O)OC(C)(C)C)CCCCOc2ccc(cc2)C[C@@H]([C@H](O)CN(CCC(C)C)S(=O)(=O)c2ccc(NC(C)=O)cc2)NC1=O	trypan blue	5.61 µM
COc1cc([C@@H]2c3cccc4cccc(c34)C3(SCCCS3)[C@H](CO)[C@@H]2CO)cc(OC)c1OC	propidium iodide	>50 µM
CC(C)(C)NC(=O)[C@@H]1C[C@@H]2CCCC[C@@H]2CN1C[C@@H](O)[C@H](Cc1ccccc1)NC(=O)[C@H](CC(N)=O)NC(=O)c1ccc2ccccc2n1	MTT	11 µM
Cc1cn([C@H]2C[C@H](N=[N+]=[N-])[C@@H](COC(=O)C(=O)N[C@H](C(=O)O)C(C)C)O2)c(=O)[nH]c1=O	trypan blue	80 µM
Cc1cn([C@H]2C=C[C@@H](CO)O2)c(=O)[nH]c1=O		>100 µM
Nc1ccn([C@H]2CC[C@@H](CO)O2)c(=O)n1		>10 µM
C=C(C(=O)O)[C@@H]1CC[C@]2(C)CC[C@]3(C)[C@H](CC[C@@H]4[C@@]5(C)CCC(=O)C(C)(C)[C@@H]5CC[C@]43C)[C@@H]12	ATP	100 µM
Cn1nc(NS(C)(=O)=O)c2c(Cl)ccc(-n3c([C@H](Cc4cc(F)cc(F)c4)NC(=O)Cn4nc(C(F)F)c5c4C(F)(F)[C@@H]4C[C@H]54)nc(C#CC(C)(C)S(C)(=O)=O)cc3=O)c21	XTT	>0.5 µM
O=C1c2c(O)ccc(O)c2C(=O)c2c(NCCNCCO)ccc(NCCNCCO)c21	ATP	25–50 µM
CS(=O)(=O)N1CCC(CC2C(=O)N(c3ccccc3)c3ccccc32)CC1		>130 µM
CCC1(c2ccccc2)Sc2ccccc2-n2cccc2C1=O		110 µM
NC(=O)C(c1ccccc1)(c1ccccc1)[C@H]1CCCN(CCOc2ccccc2)C1	XTT	31 µM
Cc1cn([C@H]2C[C@H](N=[N+]=[N-])[C@@H](COC(=O)c3ccncc3)O2)c(=O)[nH]c1=O	sulforhodamine	400 µM
CN(C)C(=O)C(c1ccccc1)(c1ccccc1)[C@H]1CCCN(CCc2ccc3c(c2)CCO3)C1	XTT	47 µM
O=C(O)[C@H](Cc1ccc(O)c(O)c1)[C@@H](Cc1ccc(O)c(O)c1)C(=O)O	neutral red	>71 µM
O=S1(c2ccccc2)=NC(=S)Nc2ccc(Cl)cc21		91 µM
Cc1cn([C@H]2C=C[C@@H](CO)O2)c(=O)[nH]c1=O	XTT	286 µM
C=C1C(=O)c2ccc3ccccc3c2[C@@H](c2cc(OC)c(OC)c(OC)c2)[C@@H]1C(=O)OC	propidium iodide	<25 µM
NC(=O)C(c1ccccc1)(c1ccccc1)[C@H]1CCCN(CCc2ccc3c(c2)CCO3)C1	XTT	>32 µM
C#C[C@@]1(CO)C=C[C@H](n2cc(C)c(=O)[nH]c2=O)O1		>100 µM
O=C(/C=C/c1ccc(O)c(O)c1)O[C@@H]1C[C@](OC(=O)/C=C/c2ccc(O)c(O)c2)(C(=O)O)C[C@@H](O)[C@H]1O		>150 µg/mL
Nc1nc2c(ncn2[C@H]2CO[C@@H](CO)O2)c(=O)[nH]1	XTT	>500 µM
CN1CC=C(Cc2cn(-c3ccccc3)c3ccccc23)CC1		18 µM
C[C@H](CCC(=O)O)[C@H]1CC[C@H]2[C@@H]3CC[C@@H]4C[C@H](OC(=O)/C=C/c5ccc(O)c(O)c5)CC[C@]4(C)[C@H]3C[C@H](OC(=O)/C=C/c3ccc(O)c(O)c3)[C@]12C	neutral red	>6.4 µM
CC(=O)c1c(O)c(C)c(O)c(Cc2c(O)c3c(c(C(=O)/C=C/c4ccccc4)c2O)OC(C)(C)C=C3)c1O	ATP / luminescence	5.769 µM
Nc1nc(N)c2ncn(CCOCP(=O)(O)O)c2n1	propidium iodide	5.3 µM
Cc1cn([C@H]2C=C[C@@H](OCP(=O)(O)O)O2)c(=O)[nH]c1=O	XTT	>500 µM
CN1CC=C(CC2C(=O)N(c3ccccc3)c3ccccc32)CC1		>141 µM
CC(C)CN(C[C@@H](O)[C@H](Cc1ccccc1)NC(=O)O[C@H]1CCOC1)S(=O)(=O)c1ccc(N)cc1	MTT	>100 µM
O=C(O)[C@@H](Cc1ccc(O)c(O)c1)[C@@H](Cc1ccc(O)c(O)c1)C(=O)O	neutral red	>76 µM
CC[C@H](C)[C@H](NC(=O)C(=O)OC[C@H]1O[C@@H](n2cc(C)c(=O)[nH]c2=O)C[C@@H]1N=[N+]=[N-])C(=O)O	sulforhodamine	450 µM
O=S1(c2ccccc2)=NC(=S)Nc2ccccc21		175 µM
COC(=O)[C@H](C)NP(=O)(OC[C@H]1C/C1=C\n1cnc2c(N)nc(N)nc21)Oc1ccccc1		44 µM
Nc1nc2c(ncn2[C@H]2C=C[C@@H](CO)C2)c(=O)[nH]1	XTT	175 µM
CC(C)CN(C[C@@H](O)[C@H](Cc1ccccc1)NC(=O)O[C@@H]1[C@@H]2CCCO[C@@H]2O[C@H]1C)S(=O)(=O)c1ccc(N)cc1	MTT	30.3 µM
COC(=O)[C@H](C)NP(=O)(OC[C@H]1C/C1=C/n1cnc2c(=O)[nH]c(N)nc21)Oc1ccccc1		76 µM
CN1CC=C(CC2(CC3=CCN(C)CC3)c3ccccc3-c3ccccc32)CC1		>130 µM
Cc1ccccc1CCN1CCCC(C(C(N)=O)(c2ccccc2)c2ccccc2)C1	XTT	52 µM
CCCCCCCCCCCCCCCCOCCCOP(=O)(O)COCCn1cc(F)c(=O)[nH]c1=O	propidium iodide	36.5 µM
O=c1[nH]cnc2c1ncn2[C@H]1CC[C@@H](CO)O1	XTT	1090 µM
C=C(COCCc1ccccc1)[C@@H]1CC[C@]2(C(=O)NC(CC(C)C)C(=O)O)CC[C@]3(C)[C@H](CC[C@@H]4[C@@]5(C)CC[C@H](O)C(C)(C)[C@@H]5CC[C@]43C)[C@@H]12.CCl	XTT	34.6 µM
Cc1cn(C=C2C[C@H]2CO)c(=O)[nH]c1=O		>100 µM
Cc1c(O)cccc1C(=O)N[C@@H](CSc1ccccc1)[C@H](O)CN1C[C@H]2CCCC[C@H]2C[C@H]1C(=O)NC(C)(C)C		>10 µM
O=C1CC(C2(c3cccc4ccccc34)SCCCS2)CO1	propidium iodide	>50 µM
O=C1N(c2ccccc2)c2ccccc2C1(Cc1ccncc1)Cc1ccc([N+](=O)[O-])cc1		39 µM
Cc1cn([C@H]2C[C@H](N=[N+]=[N-])[C@@H](COC(=O)C(=O)O)O2)c(=O)[nH]c1=O	sulforhodamine	400 µM
COc1cc(C(O)[C@H]2C(=O)OC[C@@H]2C2(c3ccc4ccccc4c3)SCCCS2)cc(OC)c1OC	propidium iodide	>50 µM
Cc1cn([C@H]2C[C@H](F)[C@@H](CO)O2)c(=S)[nH]c1=O		>200 µM
C=C(COCCc1ccccc1)[C@@H]1CC[C@]2(C(=O)NC(CC(C)C)C(=O)O)CC[C@]3(C)[C@H](CC[C@@H]4[C@@]5(C)CC[C@H](O)C(C)(C)[C@@H]5CC[C@]43C)[C@@H]12.COC	XTT	16.7 µM
O=S1(c2cccc(Cl)c2)=NC(=S)Nc2ccc(Cl)cc21		65.7 µM
COC(=O)C(=O)OC1(C(=O)O)C[C@@H](OC(=O)/C=C/c2ccc(O)c(O)c2)C(O)[C@H](OC(=O)/C=C/c2ccc(O)c(O)c2)C1		>350 µg/mL
Nc1ccn(CCOCP(=O)(O)O)c(=O)n1	propidium iodide	>100 µM
CN1CCC(CC2(CC3CCN(C)CC3)C(=O)N(c3ccccc3)c3ccccc32)CC1		>99 µM